PubChem BioAssay AID624099, ICCB-Longwood, 2012
The deposit covers about 21,000 reagents; this is a random part of them. 497 of all reagents (2.4%) were called active. 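Higher z means weaker E2 silencing; only reporter increases were scored, and knock-downs that hurt cell survival may mask genuine repressor factors.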 Unmarked entries are inactive. Reagents against one gene are numbered here.

Purpose: 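Knock-downs relieving repression by E2 of an HPV18 LCR luciferase reporter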 (primary screen)
System: human C33A cervical carcinoma cells (HPV-negative) stably expressing BPV1 E2 and an HPV18 LCR luciferase reporter
Knock-down reagent: siRNA pool against human genes, 40 nM
Duration: 72 h
Read-out: 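HPV18 LCR reporter light per well, converted to plate-wise z-scores that exclude control wells, and averaged over triplicate plates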
Scale: mean z-score and z-score: higher = stronger reporter signal, weaker E2 silencing
Rule for the call: 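Hit if mean z-score reaches 2 and two or more of three replicate z-scores also reach 2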

AAK1 (AP2 associated kinase 1) #1 showed mean z-score -0.17; z-score, replicate A = -0.6; z-score, replicate B = 0.1; z-score, replicate C = -0.02. Depletion of AAK1 (AP2 associated kinase 1) #2 came out at: mean z-score -0.26; z-score, replicate A = -0.03; z-score, replicate B = -0.23; z-score, replicate C = -0.52. Against OR6C70 (olfactory receptor family 6 subfamily C member 70) the deposit lists mean z-score 0.86; z-score, replicate A = 0.96; z-score, replicate B = 0.95; z-score, replicate C = 0.68. With knock-down of VAPB (VAMP associated protein B and C), the record shows mean z-score 0.98; z-score, replicate A = 1.08; z-score, replicate B = 0.86; z-score, replicate C = 1. PAGR1 (PAXIP1 associated glutamate rich protein 1) scored mean z-score 0.97; z-score, replicate A = 0.7; z-score, replicate B = 1.55; z-score, replicate C = 0.66. OR2B2 (olfactory receptor family 2 subfamily B member 2) showed mean z-score -0.33; z-score, replicate A = -0.24; z-score, replicate B = -0.32; z-score, replicate C = -0.44.

Depletion of FAAP24 (FA core complex associated protein 24) resulted in: mean z-score 0.55; z-score, replicate A = 0.74; z-score, replicate B = 0.18; z-score, replicate C = 0.72. With knock-down of KCNV1, the record shows mean z-score -0.09; z-score, replicate A = 0.22; z-score, replicate B = -0.2; z-score, replicate C = -0.27. Against BDH2P1 (3-hydroxybutyrate dehydrogenase 2, pseudogene 1), the entry reads mean z-score -0.83; z-score, replicate A = -0.94; z-score, replicate B = -0.77; z-score, replicate C = -0.76. Against APOL4 (apolipoprotein L4) the deposit lists mean z-score 1.26; z-score, replicate A = 1.43; z-score, replicate B = 0.98; z-score, replicate C = 1.36. After knock-down of PRADC1 (protease associated domain containing 1), the screen gave mean z-score -0.18; z-score, replicate A = -0.23; z-score, replicate B = -0.04; z-score, replicate C = -0.26. Against LAMTOR1 (late endosomal/lysosomal adaptor, MAPK and MTOR activator 1), the values are mean z-score 0.23; z-score, replicate A = 0.23; z-score, replicate B = 0.14; z-score, replicate C = 0.31.

Against LINC00994 (long independently transcribed non-coding RNA 994), the values are mean z-score 0.71; z-score, replicate A = 0.92; z-score, replicate B = 0.71; z-score, replicate C = 0.49. After knock-down of AMELX (amelogenin X-linked), the record shows mean z-score -1.17; z-score, replicate A = -1.12; z-score, replicate B = -1.21; z-score, replicate C = -1.16. With knock-down of LY86 (lymphocyte antigen 86), the screen gave mean z-score -0.43; z-score, replicate A = -0.43; z-score, replicate B = -0.28; z-score, replicate C = -0.57. With knock-down of ZNF792 (zinc finger protein 792) the results were mean z-score -0.45; z-score, replicate A = -0.62; z-score, replicate B = -0.51; z-score, replicate C = -0.2. Against SLC2A3P2, the values are mean z-score 0.92; z-score, replicate A = 0.73; z-score, replicate B = 1.05; z-score, replicate C = 0.97. Silencing of BDH2 (3-hydroxybutyrate dehydrogenase 2) resulted in: mean z-score 0.3; z-score, replicate A = 0.28; z-score, replicate B = 0.6; z-score, replicate C = 0.02.

After knock-down of GAGE2C (G antigen 2C) the results were mean z-score -0.37; z-score, replicate A = -0.42; z-score, replicate B = -0.48; z-score, replicate C = -0.21. KPNA5 (karyopherin subunit alpha 5) scored mean z-score 0.49; z-score, replicate A = 0.3; z-score, replicate B = 0.42; z-score, replicate C = 0.74. With knock-down of HSPA14 (heat shock protein family A (Hsp70) member 14), the screen gave mean z-score -0.06; z-score, replicate A = -0.38; z-score, replicate B = 0.21; z-score, replicate C = -0.02. PLCXD3 gave mean z-score 0.36; z-score, replicate A = 0.56; z-score, replicate B = 0.41; z-score, replicate C = 0.12. Against SLC39A9 the deposit lists mean z-score 0.49; z-score, replicate A = 0.37; z-score, replicate B = 0.44; z-score, replicate C = 0.65. After knock-down of SF3B2 (splicing factor 3b subunit 2) the results were mean z-score -0.98; z-score, replicate A = -1.02; z-score, replicate B = -0.69; z-score, replicate C = -1.24.

For STX7 (syntaxin 7) the deposit lists mean z-score 0.59; z-score, replicate A = 0.71; z-score, replicate B = 0.49; z-score, replicate C = 0.58. With knock-down of BAIAP2L2 (BAR/IMD domain containing adaptor protein 2 like 2) the results were mean z-score -0.7; z-score, replicate A = -0.65; z-score, replicate B = -0.92; z-score, replicate C = -0.52. With knock-down of ZNF875 (zinc finger protein 875), the record shows mean z-score -0.45; z-score, replicate A = -0.54; z-score, replicate B = -0.61; z-score, replicate C = -0.21.
